PubChem BioAssay AID1259414, Drosophila RNAi Screening Center, 2018
In all, the deposit lists about 24,000 reagents; this is an unselected part of those that have a named target and a result. Over the whole deposit, about 1,210 (5%) were called active. 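Inactive calls also include excluded dsRNAs with several or no targets, genes unexpressed in JW18, and well A1, regardless of score.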 Entries without a mark were called inactive. Reagent sequences are not shown.

- Assay: 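Fly genes that alter Wolbachia amount inside host cells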 (primary screen)
- Cells: Drosophila JW18 cells infected with Wolbachia
- Reagent: long dsRNA against Drosophila genes, 0.25 µg dsRNA per well of a 384-well plate
- Duration: 5 days
- Challenge: cells persistently infected with Wolbachia before knock-down; no added drug
- Measured: 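Automated imaging of bacterial rRNA staining divided by host cell count, reported as plate-normalised robust z-score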
- Scale: Wolbachia per cell robust z: higher = more Wolbachia per host cell than the plate typical
- Active means: 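Active if absolute robust z reaches 1.5 in two or more of three replicates, leaving out multi- or no-target dsRNAs, genes unexpressed in JW18 and A1 wells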

CG18649 (GeneID 39636) [SID104190126] → Wolbachia per cell robust z, rep 1: 0.521; Wolbachia per cell robust z, rep 2: 0.573; Wolbachia per cell robust z, rep 3: -0.216
RASSF8 (GeneID 43096) [SID104195499] → Wolbachia per cell robust z, rep 1: 0.709; Wolbachia per cell robust z, rep 2: 1.35; Wolbachia per cell robust z, rep 3: -0.378
RASSF8 (GeneID 43096) [SID104204993] → Wolbachia per cell robust z, rep 1: 1.13; Wolbachia per cell robust z, rep 2: 0.769; Wolbachia per cell robust z, rep 3: 0.612
CG4199 (GeneID 31174) [SID104198311] → Wolbachia per cell robust z, rep 1: 0.435; Wolbachia per cell robust z, rep 2: 1.21; Wolbachia per cell robust z, rep 3: -2.91
CG4199 (GeneID 31174) [SID104201101] → Wolbachia per cell robust z, rep 1: -0.116; Wolbachia per cell robust z, rep 2: -0.0568; Wolbachia per cell robust z, rep 3: 0.127
CG4199 (GeneID 31174) [SID104206495] → Wolbachia per cell robust z, rep 1: -2.02; Wolbachia per cell robust z, rep 2: -1.46; Wolbachia per cell robust z, rep 3: -0.171
sunz (GeneID 40811) [SID104192351] → Wolbachia per cell robust z, rep 1: -5.27; Wolbachia per cell robust z, rep 2: -1.01; Wolbachia per cell robust z, rep 3: -7.14
CG32816 (GeneID 318225) [SID104197129] → Wolbachia per cell robust z, rep 1: 1.52; Wolbachia per cell robust z, rep 2: 0.261; Wolbachia per cell robust z, rep 3: 0.692
dpr5 (GeneID 41381) [SID104195558] → Wolbachia per cell robust z, rep 1: -2.2; Wolbachia per cell robust z, rep 2: -4.87; Wolbachia per cell robust z, rep 3: -3.46
dpr5 (GeneID 41381) [SID104203785] → Wolbachia per cell robust z, rep 1: 0.829; Wolbachia per cell robust z, rep 2: 0.433; Wolbachia per cell robust z, rep 3: 0.43
CG6283 (GeneID 43250) [SID104195801] → Wolbachia per cell robust z, rep 1: -3.89; Wolbachia per cell robust z, rep 2: -1.83; Wolbachia per cell robust z, rep 3: -0.279
CG6283 (GeneID 43250) [SID104208457] → Wolbachia per cell robust z, rep 1: 0.267; Wolbachia per cell robust z, rep 2: -0.249; Wolbachia per cell robust z, rep 3: -0.00205
glec (GeneID 42571) [SID104196750] → Wolbachia per cell robust z, rep 1: 0.852; Wolbachia per cell robust z, rep 2: 0.185; Wolbachia per cell robust z, rep 3: 0.412
glec (GeneID 42571) [SID104203860] → Wolbachia per cell robust z, rep 1: -1.17 (active); Wolbachia per cell robust z, rep 2: -2.42; Wolbachia per cell robust z, rep 3: -1.9
CG15332 (GeneID 31714) [SID104197807] → Wolbachia per cell robust z, rep 1: -0.0507; Wolbachia per cell robust z, rep 2: 0.514; Wolbachia per cell robust z, rep 3: 0.81
CG15332 (GeneID 31714) [SID104204204] → Wolbachia per cell robust z, rep 1: 0.0969; Wolbachia per cell robust z, rep 2: -0.579; Wolbachia per cell robust z, rep 3: -0.00442
shn (GeneID 36171) [SID104185058] → Wolbachia per cell robust z, rep 1: -0.441; Wolbachia per cell robust z, rep 2: 0.837; Wolbachia per cell robust z, rep 3: -1
shn (GeneID 36171) [SID104187473] → Wolbachia per cell robust z, rep 1: -0.958; Wolbachia per cell robust z, rep 2: 0.794; Wolbachia per cell robust z, rep 3: 0.3
shn (GeneID 36171) [SID104218269] → Wolbachia per cell robust z, rep 1: -0.238; Wolbachia per cell robust z, rep 2: -2.28; Wolbachia per cell robust z, rep 3: -0.362
Sfp24Bc (GeneID 8673990) [SID104218939] → Wolbachia per cell robust z, rep 1: -0.483; Wolbachia per cell robust z, rep 2: -0.0319; Wolbachia per cell robust z, rep 3: 0.478
CG9416 (GeneID 37223) [SID104187131] → Wolbachia per cell robust z, rep 1: 1.01; Wolbachia per cell robust z, rep 2: -0.237; Wolbachia per cell robust z, rep 3: 0.126
CG31688 (GeneID 35314) [SID104181909] → Wolbachia per cell robust z, rep 1: 1.75; Wolbachia per cell robust z, rep 2: -0.227; Wolbachia per cell robust z, rep 3: 1.88
CG31688 (GeneID 35314) [SID104182474] → Wolbachia per cell robust z, rep 1: -0.965; Wolbachia per cell robust z, rep 2: -0.524; Wolbachia per cell robust z, rep 3: 0.46
CG31688 (GeneID 35314) [SID104203757] → Wolbachia per cell robust z, rep 1: -9.5; Wolbachia per cell robust z, rep 2: -2.11; Wolbachia per cell robust z, rep 3: -1.72
CG31688 (GeneID 35314) [SID104205255] → Wolbachia per cell robust z, rep 1: -0.00798; Wolbachia per cell robust z, rep 2: 0.351; Wolbachia per cell robust z, rep 3: -0.0458
CG18284 (GeneID 34460) [SID104182453] → Wolbachia per cell robust z, rep 1: -0.864; Wolbachia per cell robust z, rep 2: 0.669; Wolbachia per cell robust z, rep 3: 0.177
CG18284 (GeneID 34460) [SID104200548] → Wolbachia per cell robust z, rep 1: -0.136; Wolbachia per cell robust z, rep 2: -7.79; Wolbachia per cell robust z, rep 3: -2.08
CG18284 (GeneID 34460) [SID104203817] → Wolbachia per cell robust z, rep 1: -1.64; Wolbachia per cell robust z, rep 2: 1.02; Wolbachia per cell robust z, rep 3: -0.868
CG9896 (GeneID 37652) [SID104183754] → Wolbachia per cell robust z, rep 1: 0.0248; Wolbachia per cell robust z, rep 2: 0.334; Wolbachia per cell robust z, rep 3: 0.521
CG9896 (GeneID 37652) [SID104184386] → Wolbachia per cell robust z, rep 1: 0.56; Wolbachia per cell robust z, rep 2: 0.607; Wolbachia per cell robust z, rep 3: 0.658
